Anti-infective test results gathered from many reports (values: NIAID ChemDB through PubChem).

All rows: growth or infection tests; species: Hepatitis C virus; endpoint: EC50

Two numbers with a dash give a range or band.

compound	mutations	cell line	method	strain	result
COc1cccc(CC(=O)N/N=C/c2cccc(C)c2OS(=O)(=O)c2ccc(C)cc2)c1		Huh7	replicon		<5 µM
C=C1C[C@]1(NC(=O)[C@@H]1C[C@@H](Oc2cc(-c3ccccc3)nc3cc(OC)ccc23)CN1C(=O)[C@@H](NC(=O)OC(C)(C)C)C(C)(C)C)C(=O)NS(=O)(=O)c1cccc(C(F)(F)F)c1		Huh7	replicon	1b	<0.5 µM
O=C(Cc1ccccc1Br)N/N=C/c1ccccc1OS(=O)(=O)c1ccc(C(F)(F)F)cc1		Huh7	replicon		<5 µM
N#Cc1cccc(N=C2SC(c3ccc(NC(=O)[C@H]4CCCN4C(=O)OCc4ccccc4)cc3)C(=O)N2Cc2ccco2)c1		Huh7	replicon		<0.1 µM
CS(=O)(=O)Nc1cccc(-c2ccc3nc(N)nc(O[C@@H]4CCOC4)c3n2)c1		Huh7	replicon		<0.3 µM
CC1CCC(C(=O)N(c2cc(-c3ccc(NC(=O)c4ccoc4)cc3)sc2C(=O)O)C(C)C)CC1			replicon	1a	<0.5 µM
CS(=O)(=O)NC(=O)c1c(-c2ccc[nH]c2=O)c2c3sccc3ccc2n1Cc1cc(F)ccc1F			replicon		>1.5 µM
CCOc1nc(N)nc2ccc(-c3cccc(NS(C)(=O)=O)c3)nc12		Huh7	replicon		<0.3 µM
C=C[C@@H]1C[C@]1(NC(=O)[C@@H]1C[C@@H](Oc2cc(-c3ccccc3)nc3cc(OC)ccc23)CN1C(=O)[C@@H](NC(=O)OCOC(C)=O)C(C)(C)C)C(=O)NS(=O)(=O)C1CC1		Huh7	replicon	1b	<0.5 µM
Cc1ccc(S(=O)(=O)Oc2cc(F)ccc2/C=N/NC(=O)Cc2cccc(Cl)c2)cc1		Huh7	replicon		<5 µM
Cc1ccncc1C(=O)Nc1ccc(-c2cc(N(C(=O)C3CCC(C)CC3)C(C)C)c(C(=O)O)s2)cc1			replicon	1b	<0.5 µM
C=C[C@@H]1C[C@]1(NC(=O)[C@@H]1C[C@@H](Oc2cc(-c3ccccc3)nc3cc(OC)ccc23)CN1C(=O)[C@@H](NC(=O)OC(C)(C)C)C(C)(C)C)C(=O)NS(=O)(=O)c1ccccc1I		Huh7	replicon	1b	<0.5 µM
O=C(O)c1c(-c2ccc[nH]c2=O)c2c3ccccc3c(F)cc2n1Cc1cc([N+](=O)[O-])ccc1F			replicon		<1 µM
Nc1ncnc2c1c(-c1ccoc1)cn2[C@@H]1O[C@H](CO)[C@@H](O)[C@H]1F		HCV replicon	replicon	1a	4.37 µM
C=C[C@@H]1C[C@]1(NC(=O)[C@@H]1C[C@@H](Oc2cc(-c3ccccc3)nc3cc(OC)ccc23)CN1C(=O)[C@@H](NC(=O)OC(C)(C)C)C(C)(C)C)C(=O)NS(=O)(=O)CC(C)(C)C		Huh7	replicon	1b	<0.5 µM
O=C(Cc1ccccc1)N/N=C/c1ccccc1OS(=O)(=O)c1ccc(F)c(Cl)c1		Huh7	replicon		5–50 µM
O=C(Nc1ccc(C2SC(=Nc3ccc(N4CCOCC4)cc3)N(Cc3ccccn3)C2=O)cc1)[C@H]1CCCN1C(=O)C(F)c1ccccc1		Huh7	replicon		<0.1 µM
O=C(O)c1c(-c2ccc[nH]c2=O)c2c3occc3ccc2n1Cc1ccccc1F			replicon		0.5–1.5 µM
CC1CCC(C(=O)N(c2cc(-c3ccc(NC(=O)c4cscn4)nc3)sc2C(=O)O)C(C)C)CC1			replicon	1b	<0.5 µM
C=C[C@@H]1C[C@]1(NC(=O)[C@@H]1C[C@@H](Oc2cc(-c3ccccc3)nc3cc(OC)ccc23)CN1C(=O)[C@@H](NC(=O)OC(C)(C)C)C(C)(C)C)C(=O)NS(=O)(=O)c1ccccc1[N+](=O)[O-]		Huh7	replicon	1b	<0.5 µM
O=C(NS(=O)(=O)C1CC1)c1c(-c2ccc[nH]c2=O)c2c3occc3c(F)cc2n1Cc1cc(Cl)nc2ccccc12			replicon		0.5–1.5 µM
Cc1ccc(S(=O)(=O)Oc2cnccc2/C=N/NC(=O)Cc2cccc(Cl)c2)cc1		Huh7	replicon		<5 µM
CC(Nc1nc(NCC(F)(F)F)c2nc(-c3ccc(F)cc3)ccc2n1)c1ccc(S(N)(=O)=O)cc1			replicon		<0.1 µM
Nc1ncnc2c1c(-c1ccc3ccccc3c1)cn2[C@@H]1O[C@H](CO)[C@@H](O)C1(F)F		HCV replicon	replicon	2a	0.81 µM
NS(=O)(=O)c1ccc(CNc2nc(NCC(F)F)c3nc(-c4ccc(F)cc4)ccc3n2)cc1			replicon		<0.1 µM
COC(=O)N[C@H](C(=O)N1CCC[C@H]1c1ncc(-c2ccc(-c3ccc(-c4cnc([C@@H]5CCCN5C(=O)[C@@H](NC(=O)OC)C(C)C)[nH]4)cc3)cc2)[nH]1)C(C)C	Y93N	ET	luciferase	1b	0.000509 µM
CC1CCC(C(=O)N(c2cc(-c3ccc(NC(=O)c4ccsc4)cc3)sc2C(=O)O)C(C)C)CC1			replicon	1a	<0.5 µM
O=C(O)c1c(-c2ccccc2F)c2c3occc3c(F)cc2n1Cc1cc2ccccc2nc1Cl			replicon		<0.5 µM
O=C(Cc1ccccc1)N/N=C/c1ccccc1OS(=O)(=O)c1ccc(F)cc1F		Huh7	replicon		>50 µM
Nc1ncnc2c1c(-c1ccccc1)cn2[C@H]1O[C@H](CO)[C@@H](O)C1(F)F		HCV replicon	replicon	1b	2.64 µM
CN(C)c1ccc(CC(=O)N2CCC[C@@H]2C(=O)Nc2ccc(C3SC(=Nc4ccc(N5CCOCC5)cc4)N(Cc4ccccn4)C3=O)cc2)cc1		Huh7	replicon		0.1–1 µM
COc1c(-c2ccc3cc(NS(C)(=O)=O)ccc3c2)cc(-n2ccc(=O)[nH]c2=O)cc1C(C)(C)C	V499A	Huh7	luciferase	genotype 1b	0.0025 µM
O=C(CCCCc1ccccc1)N/N=C/c1ccccc1OS(=O)(=O)c1ccc(C(F)(F)F)cc1		Huh7	replicon		5–50 µM
Cc1ccc2nc(Cl)c(Cn3c(C(=O)O)c(-c4ccc[nH]c4=O)c4c5occc5c(F)cc43)cc2c1			replicon		<0.5 µM
CS(=O)(=O)CCNc1nc(NCc2ccc(F)cc2)nc2ccc(-c3cnc(N)s3)nc12			replicon		<0.1 µM
CC1CCC(C(=O)N(c2cc(-c3ccc(NC(=O)c4ccccc4F)cc3)sc2C(=O)O)C(C)C)CC1			replicon	1b	<0.5 µM
O=C(Nc1ccc(C2SC(=Nc3ccc(N4CCOCC4)cc3)N(Cc3ccccn3)C2=O)cc1)[C@H]1CCCN1C(=S)NCc1ccccc1		Huh7	replicon		<0.1 µM
Nc1ncnc2c1c(-c1ccco1)cn2[C@H]1O[C@H](CO)[C@@H](O)C1(F)F		HCV replicon	replicon	2a	13.76 µM
CN1CC[C@H](C(=O)Nc2ccc(-c3ccc4nc(NCc5ccc(S(N)(=O)=O)cc5)nc(NCC(F)(F)F)c4n3)cc2F)C1			replicon		<0.1 µM
Cc1cc2ccc3c(c(-c4ccc[nH]c4=O)c(C(=O)NS(C)(=O)=O)n3Cc3ccccc3F)c2o1			replicon		0.5–1.5 µM
C=C[C@@H]1C[C@]1(NC(=O)[C@@H]1C[C@@H](Oc2cc(-c3ccccc3)nc3cc(OC)ccc23)CN1C(=O)[C@@H](NC(=O)OC(C)(C)C)C(C)(C)C)C(=O)NS(=O)(=O)c1ccc(C)cc1		Huh7	replicon	1b	<0.05 µM
CCOc1nc(N)nc2ccc(-c3cccc(NS(=O)(=O)c4ccc(C)cc4)c3)nc12		Huh7	replicon		0.3–1 µM
NC(=O)COc1ccc2c(c1)S(=O)(=O)N=C(c1c(O)c3cc(F)ccc3n(CCC3CC3)c1=O)N2			replicon	1a 42134	0.15 µM
COc1ccc(OC)c(CC(=O)N/N=C/c2ccccc2OS(=O)(=O)c2ccc(C(F)(F)F)cc2)c1		Huh7	replicon		<5 µM
C[C@H](O)C(=O)Nc1ccc(-c2ccc3nc(NCc4ccc(S(N)(=O)=O)cc4)nc(NCC(F)(F)F)c3n2)cc1Cl			replicon		<0.1 µM
C[C@H](C(=O)N1CCC[C@@H]1C(=O)Nc1ccc(C2SC(=Nc3ccc(N4CCOCC4)cc3)N(Cc3ccccn3)C2=O)cc1)c1ccccc1		Huh7	replicon		<0.1 µM
CCOc1nc(N)nc2ccc(-c3ccc(Nc4nccs4)cc3)nc12		Huh7	replicon		0.3–1 µM
C#Cc1cn([C@@H]2O[C@H](CO)[C@@H](O)C2(F)F)c2ncnc(N)c12		HCV replicon	replicon	1b	0.5 µM
N#Cc1cccc(S(=O)(=O)Oc2ccccc2/C=N/NC(=O)Cc2ccccc2)c1		Huh7	replicon		>50 µM

A second listing of 7 rows from above:

compound	mutations	cell line	method	strain	result
Nc1ncnc2c1c(-c1ccco1)cn2[C@H]1O[C@H](CO)[C@@H](O)C1(F)F		HCV replicon	replicon	2a	13.76 µM
NC(=O)COc1ccc2c(c1)S(=O)(=O)N=C(c1c(O)c3cc(F)ccc3n(CCC3CC3)c1=O)N2			replicon	1a 42134	0.15 µM
Cc1ccc(S(=O)(=O)Oc2cc(F)ccc2/C=N/NC(=O)Cc2cccc(Cl)c2)cc1		Huh7	replicon		<5 µM
C=C[C@@H]1C[C@]1(NC(=O)[C@@H]1C[C@@H](Oc2cc(-c3ccccc3)nc3cc(OC)ccc23)CN1C(=O)[C@@H](NC(=O)OC(C)(C)C)C(C)(C)C)C(=O)NS(=O)(=O)c1ccccc1[N+](=O)[O-]		Huh7	replicon	1b	<0.5 µM
CC(Nc1nc(NCC(F)(F)F)c2nc(-c3ccc(F)cc3)ccc2n1)c1ccc(S(N)(=O)=O)cc1			replicon		<0.1 µM
O=C(Nc1ccc(C2SC(=Nc3ccc(N4CCOCC4)cc3)N(Cc3ccccn3)C2=O)cc1)[C@H]1CCCN1C(=S)NCc1ccccc1		Huh7	replicon		<0.1 µM
C=C[C@@H]1C[C@]1(NC(=O)[C@@H]1C[C@@H](Oc2cc(-c3ccccc3)nc3cc(OC)ccc23)CN1C(=O)[C@@H](NC(=O)OC(C)(C)C)C(C)(C)C)C(=O)NS(=O)(=O)c1ccccc1I		Huh7	replicon	1b	<0.5 µM

Conditions beyond the fields shown may differ between rows. An empty or dashed field is not shown. ECn is the concentration giving n% inhibition of infection, replication or growth.